Compound potency records, mixed from different reports. Data source: NIAID ChemDB in PubChem.

Common to all: tests in culture; organism: HIV-1

Blank or dashed fields: not listed here.

compound	measure	cells	strain	read by	changes	value
Cc1cn([C@H]2C[C@H](N=[N+]=[N-])[C@@H](COC(=O)C3CCCC3)O2)c(=O)[nH]c1=O	EC50	CEM + CME-SS		cytopathic effect / XTT		0.04 µM
Nc1ccccc1NC(=O)CSc1sc(Cl)nc1-c1ccc(Br)cc1Br	EC50	MT-4	IIIB	MTT	L100I	2.23 µM
CC(C)=CCN1Cc2cc(Cl)cc3[nH]c(=S)n(c23)C[C@@H]1C	EC50	MT-4	IIIB/LAI	p24		0.01–0.02 µg/mL
CC[C@H](C)C(=O)O[C@H]1C[C@@H](C)C=C2C=C[C@H](C)[C@H](CC[C@@H]3C[C@@H](O)CC(=O)O3)[C@H]21	EC50	PBMC	NL4-3	p24		>50 µM
O=C1C(=O)N(CCOCCN2C(=O)C(=O)c3cc(F)ccc32)c2ccc(F)cc21	EC50	MT-4	IIIB	MTT		32.16 µM
CC(=O)c1ccccc1NC(C(N)=O)c1c(Cl)cccc1Cl	EC90	MT-4	R88703-resistant IIIB (RT Y181C)	p24	RT-Y181C	>10 µM
Nc1nc(-c2ccc(Br)cc2Br)c(SCC(=O)Nc2ccccc2Cl)s1	EC50	MT-4	IIIB	MTT		>23.67 µM
NC(=O)c1ncn([C@@H]2O[C@H](CO)[C@@H](O)[C@H]2O)n1	EC50	C3	LAV	p24		50 µM
Cc1cc(C)cc(C(=O)c2cccnc2Oc2ccc(N)cc2)c1	EC50	MT-4	RES056	MTT		>123 µM
O=C(CSc1sc(Cl)nc1-c1ccc(Br)cc1Br)Nc1cccnc1Cl	EC50	MT-4	IIIB	MTT		2.67 µM
Cc1cc(C)cc(C(=O)c2cccnc2Nc2ccc(C(N)=O)cc2)c1	EC50	MT-4	IIIB	MTT		>36.42 µM
O=C1/C(=C/c2ccc([N+](=O)[O-])c(O)c2)CNC/C1=C\c1ccc([N+](=O)[O-])c(O)c1	EC50	MT-4		cytopathic effect / MTT		>1.2 µM
CCc1cc(NCc2nc3c(Cl)ccc(Cl)c3o2)c(=O)[nH]c1C	EC50	MT-4	NL4-3	p24	RT-V108I	0.4 µM
O=C(CSc1sc(Cl)nc1-c1ccc(Br)cc1Br)Nc1ccc(Cl)cc1Cl	EC50	MT-4	IIIB	MTT		>159 µM
c1cc(CN2CCCNCCNCCCNCC2)ccc1CN1CCCNCCNCCCNCC1	EC50	HeLaP4	NL4-3	β-galactosidase		0.00285 µM
Nc1nc(=O)n([C@H]2O[C@@H](CO)C[C@H]2F)cc1Cl	EC50	PBM				>100 µM
COc1ccc(CN[C@@H](C(=O)N[C@H]2c3ccccc3C[C@H]2O)[C@H](O)[C@H](Cc2ccccc2)NC(=O)[C@@H](NC(=O)OCc2ccccc2)C(C)(C)C)cc1	EC50	Primary T4 cells + T4	A018C	p24		0.04 µM
OC[C@H]1O[C@@H](n2cnc3c2NC=NC[C@H]3O)C[C@@H]1O	EC50	ATH8		cytopathic effect		>0.05 µM
Cc1cc(C)cc(C(=O)c2cccnc2Oc2ccc(C#N)cc2)c1	EC50	MT-4	IIIB	MTT		12.99 µM
CCc1c(Sc2ccccn2)n(COCc2ccccc2)c(=O)[nH]c1=O	EC50		UC781-RS(RT-Y181C		RT-Y181C	3.1 µM
CCc1cc(NCc2nc3c(Cl)ccc(Cl)c3o2)c(=O)[nH]c1C	EC50	PBMC	Clinical isolate (RT M41L D67N T215Y)	p24	RT-M41L D67N T215Y	<0.8 µM
Cc1cn([C@H]2O[C@@H](CO)C[C@H]2F)c(=O)[nH]c1=O	EC50	PBM				190 µM
Nc1ncnc2c1ncn2[C@H]1CC[C@@H](CO)O1	EC50	C3	LAV	p24		19 µM
CNCCOc1ccc(C[C@@H]2[C@H](O)[C@@H](O)[C@@H](Cc3ccc(OCCNC)cc3)N(Cc3ccccc3)C(=O)N2Cc2ccccc2)cc1	EC50	MT-2	RF	hybridisation		<0.8 µM
Cc1cc(C)cc(C(=O)c2cccnc2Nc2cnccn2)c1	EC50	MT-4	IIIB	MTT		>240 µM
Nc1nc2c(ncn2[C@H]2CC[C@@H](CO)O2)c(=O)[nH]1	EC50	H9	IIIB	p24		0.49 µM
Cc1cn([C@H]2C[C@H](N=[N+]=[N-])[C@@H](CO)O2)c(=O)[nH]c1=O	EC50	AA5	IIIB	cytopathic effect / XTT		0.01 µM
Cc1cn([C@H]2C[C@H](N=[N+]=[N-])[C@@H](COC(=O)CCC(=O)OC3CN(Cc4ccccc4)C(=O)N(Cc4ccccc4)C3)O2)c(=O)[nH]c1=O	EC50	CEM + CME-SS		cytopathic effect / XTT		0.074 µM
O=C1NC(=O)C(=Cc2cc(O)c(O)c(O)c2)C(=O)N1	EC50	MT-4		cytopathic effect / MTT		>50 µM
O=c1[nH]c(=O)n([C@H]2O[C@@H](CO)C[C@H]2F)cc1F	EC50	PBM				>100 µM
O=C1N(Cc2cccc(-c3ccn[nH]3)c2)[C@H](Cc2ccccc2)[C@H](O)[C@@H](O)[C@@H](Cc2ccccc2)N1Cc1cccc(-c2ccn[nH]2)c1	EC50	MT-2	RF	hybridisation		<0.056 µM
O=c1[nH]c(=O)n([C@H]2O[C@@H](CO)C[C@H]2F)cc1Cl	EC50	PBM				>100 µM
CO/N=C1\C(=O)N(CCOCCN2C(=O)/C(=N/OC)c3cc(Cl)ccc32)c2ccc(Cl)cc21	EC50	MT-4	IIIB	MTT		>193 µM
Nc1ncnc2c1ncn2CCOCP(=O)(O)O	EC50					8.2 µM
COC(=O)C(O)(c1c[nH]c2ccc([N+](=O)[O-])cc12)C(F)(F)F	EC50	TZM-bl	IIIB			19.6 µM
O=C1CCCN1CCCN1CC(=O)N2CC(N(CCOc3ccccc3)S(=O)(=O)c3cccc(F)c3)C[C@H]2C1=O	EC50	TZM-bl	PLAI-JRFL PID2-18B	luciferase		19.8 µM
CCOC(=O)C(O)(c1c[nH]c2ccc(C(=O)OC)cc12)C(F)(F)F	EC50	TZM-bl	IIIB			22.4 µM
O=C1N(Cc2cccc(-c3ccn[nH]3)c2)[C@H](Cc2ccc(OCc3cccnc3)cc2)[C@H](O)[C@@H](O)[C@@H](Cc2ccc(OCc3cccnc3)cc2)N1Cc1cccc(-c2ccn[nH]2)c1	EC50	MT-2	RF	hybridisation		<0.032 µM
CCCc1cc(=O)[nH]c2c3c(c4c(c12)OC(C)(C)C=C4)O[C@H](C)[C@@H](C)[C@@H]3O	EC50	CEM + CEM-SS	RF	cytopathic effect / XTT		0.12 µM
CCOC(=O)C(O)(c1c[nH]c2ccc(F)cc12)C(F)(F)F	EC50	TZM-bl	IIIB			0.308 µM
Cc1cn([C@H]2C[C@H](N=[N+]=[N-])[C@@H](COC(=O)c3cnc[nH]3)O2)c(=O)[nH]c1=O	EC50	CEM + CME-SS		cytopathic effect / XTT		0.31 µM
C[C@H]1CCCC[C@@H]1Oc1cc(CCc2ccccc2)[nH]c(=O)c1I	EC50	TZM-bl	A17	ELISA		0.117 µM
Cc1cn([C@H]2C[C@H](N=[N+]=[N-])[C@@H](CO)O2)c(=O)[nH]c1=O	EC50	MT-4	HXB2 WT			0.0147 µM
CCO/N=C1\C(=O)N(CCOCCN2C(=O)/C(=N/OCC)c3cc(Cl)ccc32)c2ccc(Cl)cc21	EC50	MT-4	IIIB	MTT		13.3 µM
COC(=O)C(O)(c1c[nH]c2ccc(Cl)cc12)C(F)(F)F	EC50	TZM-bl	IIIB			5.607 µM
N#Cc1ccc(Nc2nccc(C(Cl)c3ccc(F)cc3)n2)cc1	EC50	MT-4	IIIB	MTT	K103N + Y181C	35.4 µM
CC(C)CN(C[C@@H](O)[C@H](Cc1ccccc1)NC(=O)O[C@H]1CCOC1)S(=O)(=O)c1ccc(N)cc1	EC50	MT-4	HXB2 WT			0.0325 µM
Nc1nc(Cl)nc2c1ncn2[C@H]1C=C[C@@H](CO)O1	EC50	C8166	HXBc2	RT activity		<20 µM
COc1ncccc1C(=O)c1cc(C)cc(C)c1	EC50	MT-4	IIIB	MTT		>7.34 µM
CCOC(=O)C(O)(c1c[nH]c2cc(F)ccc12)C(F)(F)F	EC50	TZM-bl	IIIB			0.147 µM
Cc1cccc(C)c1OCC(=O)N[C@@H](Cc1ccccc1)[C@@H](O)C[C@H](Cc1ccccc1)NC(=O)[C@H](C(C)C)N1CCCNC1=O	EC50	MT-4	HXB2 WT			0.024 µM
CC(C)[C@H](COCc1ccccc1)NC(=O)C(F)(F)C(=O)C(Cc1ccc(OCc2ccccc2)cc1)NC(=O)[C@@H](NC(=O)OCc1ccccc1)C(C)C	EC50	MT-4	RF	MTT		0.1 µM
CCCCCCCC/C=C\CCCCCCCC(=O)NCCCOc1c(Br)cc(CCNC(=O)CCCCCCCCCCCCC(C)C)cc1Br	EC50	PBMC		RT activity		52.2 µM
CNc1ncnc2c1ncn2[C@@H]1O[C@@H](CO)C[C@H]1F	EC50	PBM				>100 µM
O=C1N(Cc2ccccc2)[C@H](Cc2ccccc2)[C@H](O)[C@@H](O)[C@@H](Cc2ccccc2)N1Cc1ccccc1	EC50	MT-2	RF	hybridisation		<0.79 µM
COC(=O)C(O)(c1c[nH]c2ccc(C#N)cc12)C(F)(F)F	EC50	TZM-bl	IIIB			92.5 µM
O=C1NC(=S)NC(=O)C1=Cc1cc(O)c(O)c(O)c1	EC50	MT-4		cytopathic effect / MTT		20 µM
CCO/N=C1\C(=O)N(CCOCCN2C(=O)/C(=N/OCC)c3ccccc32)c2ccccc21	EC50	MT-4	IIIB	MTT		21.49 µM
CC(C)=CCOc1cc(NC(=S)c2ccoc2C)ccc1Cl	EC50	CEM + CEM-SS	IIIB			0.01 µM
Cc1ccnc2c1NC(=O)c1cccnc1N2C1CC1	EC50	C8166	RF	cytopathic effect / MTT		0.04 µM
CCOC(=O)C(O)(c1cn(CCC(C)C)c2ccccc12)C(F)(F)F	EC50	TZM-bl	IIIB			4.9 µM
Cc1cn([C@H]2C[C@H](N=[N+]=[N-])[C@@H](COC(=O)CC[C@@H](C)[C@H]3CC[C@H]4[C@@H]5CC[C@@H]6CCCC[C@]6(C)[C@H]5CC[C@]34C)O2)c(=O)[nH]c1=O	EC50	CEM + CME-SS		cytopathic effect / XTT		0.042 µM
CCOC(=O)CC1C/C(=C\c2ccc(O)c(O)c2)C(=O)/C(=C/c2ccc(O)c(O)c2)C1	EC50	MT-4		cytopathic effect / MTT		>5 µM
CN(C)CCOc1ccc(C[C@@H]2[C@H](O)[C@@H](O)[C@@H](Cc3ccc(OCCN(C)C)cc3)N(Cc3cccc(-c4ccn[nH]4)c3)C(=O)N2Cc2cccc(-c3ccn[nH]3)c2)cc1	EC50	MT-2	RF	hybridisation		<5.4 µM
Cc1ccnc2c1NC(=O)c1cccnc1N2C1CC1	EC50	MT-4	IIIB	MTT	E138K	0.18 µM
Cc1cc(C)cc(C(=O)c2cccnc2Oc2ccc(C=O)cc2)c1	EC50	MT-4	IIIB	MTT		>33.65 µM
Nc1nc2c(ncn2[C@H]2CC[C@@H](CO)O2)c(=O)[nH]1	EC90	C3	LAV	p24		3.3 µM

A second listing of 5 rows from above:

compound	measure	cells	strain	read by	changes	value
Cc1cn([C@H]2C[C@H](N=[N+]=[N-])[C@@H](COC(=O)CCC(=O)OC3CN(Cc4ccccc4)C(=O)N(Cc4ccccc4)C3)O2)c(=O)[nH]c1=O	EC50	CEM + CME-SS		cytopathic effect / XTT		0.074 µM
CCc1cc(NCc2nc3c(Cl)ccc(Cl)c3o2)c(=O)[nH]c1C	EC50	PBMC	Clinical isolate (RT M41L D67N T215Y)	p24	RT-M41L D67N T215Y	<0.8 µM
Cc1cn([C@H]2C[C@H](N=[N+]=[N-])[C@@H](COC(=O)c3cnc[nH]3)O2)c(=O)[nH]c1=O	EC50	CEM + CME-SS		cytopathic effect / XTT		0.31 µM
CC(C)=CCOc1cc(NC(=S)c2ccoc2C)ccc1Cl	EC50	CEM + CEM-SS	IIIB			0.01 µM
Nc1nc2c(ncn2[C@H]2CC[C@@H](CO)O2)c(=O)[nH]1	EC50	H9	IIIB	p24		0.49 µM

Rows are shuffled and stem from different studies. a–b is a range or a potency band. ECn: concentration that inhibits the pathogen or its effect by n%.